Literature values in patent publication US5955100A, “Prodrugs their preparation and use as pharmaceuticals” (priority 1992, dated 1999).

Tested on: tumors with high β-glucuronidase levels
Conditions: tumor patients; cited from earlier work

ClCCN(CCCl)c1ccccc1
therapeutic results in clinical trial: rather disappointing
